Data published in patent publication US12258540B2, “Environmentally compatible detergents for inactivation of lipid-enveloped viruses” (TAKEDA PHARMACEUTICAL COMPANY LIMITED, priority 2017, dated 2025).

Columns and labels:
[1] = system: xenotropic murine leukemia virus (X-MuLV); conditions: S/D mixture with PS80 and TnBP, HSA-containing liquid
[2] = system: bovine viral diarrhea virus (BVDV); conditions: single detergent 0.1%±0.01%, buffer containing HSA, 14° C.±1° C., within 5 minutes

4-tert-octylbenzyl alcohol polyethoxylate
virus reduction factor (RF), X-MuLV ([1]; 0.08%-0.1% detergent, 19° C.±1° C., within 10 minutes): over 2
virus reduction factor (RF), X-MuLV ([1]; 0.1% detergent, 1° C.±1° C., within 10 minutes): over 2
virus reduction factor (RF), X-MuLV ([1]; 0.1% detergent, 19° C.±1° C., within 30 min): around 4
virus reduction factor (RF), BVDV [2]: around 5

Where two headings read alike, the source gives them in different places.
